Assay [1] has as its target T1, DENV-2 New Guinea B (NGB) parent virus (dengue type 2 virus).
The target in assay [2] is T1, DENV-2 New Guinea B (NGB) parent virus. Briefly: cell-based or functional assay.

The Kd is the equilibrium constant for the complex coming apart.

B1: chimpanzee Fab 1A5 (Fab, V domains shown)
VH: EVQLLESGGGLVQPGGSRRLSCAASGFTISDNVMHWVRQAPGKGLEWVALIYSADTTHYADSVKGRFTISRDNSKNTLYLQMDSLRPEDTAVYYCAREYCTGDTCFAHFDYWGQGTLVSVSS
VL: ELQMTQSPSSVSASVGDTVTIACRASQSITNYLSWYQQKPGKAPKLLIYHASTLQSGIPSRFSGSGSGTDFTLTISSLQPDDFATYYCHYGYGTHTFGQGTKLEIKR
Regarding B1, the Kd in assay [1] is 0.47 nM. Besides, the PRNT50 titer in assay [2] stood at 0.74 µg/mL.

The values above are taken from patent US20070134256A1 (US Dept. of Health and Human Services, published 2007).
